Literature values, collected in patent publication US7365050B2, “Methods for modulating a drug-related effect or behavior” (The Regents of the University of California, priority 2003, dated 2008).

By UniProt entry, the sequences of proteins in these tests, tags left out.
UniProt Q02294, whole entry: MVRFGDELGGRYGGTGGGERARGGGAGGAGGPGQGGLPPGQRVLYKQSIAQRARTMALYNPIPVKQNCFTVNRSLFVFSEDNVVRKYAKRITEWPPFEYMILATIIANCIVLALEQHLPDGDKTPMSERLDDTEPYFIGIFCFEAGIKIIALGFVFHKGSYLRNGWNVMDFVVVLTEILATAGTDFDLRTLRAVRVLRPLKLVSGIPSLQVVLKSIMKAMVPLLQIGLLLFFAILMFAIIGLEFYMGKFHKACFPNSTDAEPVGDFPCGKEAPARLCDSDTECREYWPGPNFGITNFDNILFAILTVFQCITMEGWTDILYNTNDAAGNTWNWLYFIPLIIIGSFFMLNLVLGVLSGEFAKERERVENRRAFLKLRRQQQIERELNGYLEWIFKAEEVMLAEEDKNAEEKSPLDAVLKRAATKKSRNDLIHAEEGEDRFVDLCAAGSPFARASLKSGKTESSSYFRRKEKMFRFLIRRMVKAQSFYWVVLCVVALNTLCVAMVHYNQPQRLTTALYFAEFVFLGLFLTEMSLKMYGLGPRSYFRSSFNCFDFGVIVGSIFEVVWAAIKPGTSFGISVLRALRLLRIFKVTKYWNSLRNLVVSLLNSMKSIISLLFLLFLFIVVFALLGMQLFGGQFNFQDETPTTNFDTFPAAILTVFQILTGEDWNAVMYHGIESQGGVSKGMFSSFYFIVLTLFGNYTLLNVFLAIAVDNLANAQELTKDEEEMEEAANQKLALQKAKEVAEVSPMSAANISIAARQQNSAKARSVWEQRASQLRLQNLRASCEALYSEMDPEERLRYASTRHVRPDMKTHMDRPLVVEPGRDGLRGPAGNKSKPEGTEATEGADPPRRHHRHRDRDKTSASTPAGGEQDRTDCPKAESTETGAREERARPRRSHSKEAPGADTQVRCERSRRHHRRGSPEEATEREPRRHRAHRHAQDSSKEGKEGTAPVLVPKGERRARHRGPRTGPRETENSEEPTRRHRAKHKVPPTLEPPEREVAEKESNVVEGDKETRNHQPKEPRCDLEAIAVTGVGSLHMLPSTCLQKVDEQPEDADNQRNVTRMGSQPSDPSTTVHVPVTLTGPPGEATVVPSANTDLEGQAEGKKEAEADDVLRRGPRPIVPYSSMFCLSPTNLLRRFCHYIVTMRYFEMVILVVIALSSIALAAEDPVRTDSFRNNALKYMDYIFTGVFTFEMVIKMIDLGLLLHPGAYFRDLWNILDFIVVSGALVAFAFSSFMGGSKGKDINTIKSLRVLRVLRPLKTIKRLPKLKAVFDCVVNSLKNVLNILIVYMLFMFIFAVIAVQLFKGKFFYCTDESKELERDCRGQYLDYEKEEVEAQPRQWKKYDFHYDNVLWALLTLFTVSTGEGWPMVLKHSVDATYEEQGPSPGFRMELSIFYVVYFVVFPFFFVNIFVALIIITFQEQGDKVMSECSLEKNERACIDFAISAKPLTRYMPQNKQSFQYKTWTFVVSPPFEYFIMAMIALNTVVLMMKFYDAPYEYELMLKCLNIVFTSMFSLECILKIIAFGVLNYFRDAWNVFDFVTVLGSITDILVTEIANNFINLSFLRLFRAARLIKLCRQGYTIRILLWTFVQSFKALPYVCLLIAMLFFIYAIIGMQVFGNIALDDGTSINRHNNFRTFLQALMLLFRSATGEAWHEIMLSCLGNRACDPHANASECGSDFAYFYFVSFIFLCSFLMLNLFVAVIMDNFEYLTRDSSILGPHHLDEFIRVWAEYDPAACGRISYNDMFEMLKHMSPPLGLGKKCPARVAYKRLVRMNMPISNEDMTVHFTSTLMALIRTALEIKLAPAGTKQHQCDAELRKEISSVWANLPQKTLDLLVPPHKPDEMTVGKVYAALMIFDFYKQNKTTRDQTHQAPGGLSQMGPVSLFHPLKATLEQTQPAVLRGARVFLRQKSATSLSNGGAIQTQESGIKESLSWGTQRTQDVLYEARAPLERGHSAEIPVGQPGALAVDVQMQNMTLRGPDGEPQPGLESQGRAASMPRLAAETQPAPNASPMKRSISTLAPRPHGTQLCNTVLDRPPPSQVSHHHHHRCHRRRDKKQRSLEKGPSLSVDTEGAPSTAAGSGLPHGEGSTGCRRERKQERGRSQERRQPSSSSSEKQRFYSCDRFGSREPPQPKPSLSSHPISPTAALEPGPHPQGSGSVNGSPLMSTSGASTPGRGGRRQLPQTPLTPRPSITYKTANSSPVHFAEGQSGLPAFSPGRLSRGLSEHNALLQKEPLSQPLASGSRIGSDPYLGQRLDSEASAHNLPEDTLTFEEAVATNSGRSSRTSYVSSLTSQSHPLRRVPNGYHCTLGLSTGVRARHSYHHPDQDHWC

Target: N-type calcium channel (Rattus norvegicus, UniProt Q02294)
Set-up: release of beta-endorphin from primary cultures of hypothalamic neurons; endogenous in cells; host or cells: primary cultures of hypothalamic neurons
Conditions: cited from earlier work

Question: With omega-conotoxin GVIA as the substance, how does the “ethanol-stimulated release of beta-endorphin” value read?
Answer: The value was “prevented”.
